Data as given in patent EP4345092A1, “NITROBENZAMIDE COMPOUNDS, METHODS AND USES THEREOF” (Faculdade de Farmácia da Universidade de Lisboa, priority 2022, dated 2024).

Columns and labels:
[1] = test system: Mycobacterium tuberculosis H37Rv (ATCC 27294); assay: Minimum Inhibitory Concentration (MIC), broth microdilution in 96-well plates; format: cell-based; settings: M. tuberculosis H37Rv, 10th day of incubation
[2] = test system: Mycobacterium tuberculosis H37Rv (ATCC 27294); settings: M. tuberculosis H37Rv; plated on 7H10 + OADC; 3 weeks of incubation; no colonies
[3] = concentration with no visible turbidity

Compound | MIC [1, 3] [µg/mL] | MIC ([1]; same MIC expressed in nM) [nM] | MBC [2] [µg/mL]
O=C(NCCCCCOC(=O)c1cc([N+](=O)[O-])cc([N+](=O)[O-])c1)c1cc([N+](=O)[O-])cc([N+](=O)[O-])c1 | 0.063 | 128.21 | 0.5
O=C(NCCCCCNC(=O)c1cc([N+](=O)[O-])cc([N+](=O)[O-])c1)c1cc([N+](=O)[O-])cc([N+](=O)[O-])c1 | 0.25 | 509.80 | 
O=C(NCCOC(=O)c1cc([N+](=O)[O-])cc([N+](=O)[O-])c1)c1cc([N+](=O)[O-])cc([N+](=O)[O-])c1 | >16 | >35600 | 
